Compound potency records, mixed from different reports. Data source: NIAID ChemDB in PubChem.

Shared fields: host cell toxicity; cells: VERO; read-out: CC50

Blank or dashed fields: not listed here. Rows are shuffled and stem from different studies. Two numbers with a dash give a range or band. CCn is the concentration with n% toxicity to the cells.

smiles,read by,value
Cn1cc(C(=O)c2ccccc2)cc1/C=C/C(=O)O,-,250 µg/mL
CN(C)C(=O)CC(CSc1ccccc1)Nc1c(C(=O)N/N=C/c2ccc(F)cc2)cnc2cccc(C(F)(F)F)c12,MTT,>62.5 µg/mL
COc1ncnc2c1ncn2O[C@@H]1CS[C@@H](CO)O1,-,>100 µg/mL
CSc1nsc(-c2ccc(Cl)cc2)c1C#N,-,5 µM
O=c1[nH]c(=O)n([C@H]2C[C@H](O)[C@@H](CO)O2)cc1C#CC#Cc1ccc2ccc3cccc4ccc1c2c34,MTT,>20 µM
Nc1ncnc2c1ncn2C=C1CC1CO,-,59 µM
Nc1ncnc2c1ncn2O[C@@H]1CO[C@@H](CO)O1,-,>100 µg/mL
Cn1cc(C(=O)c2ccc(F)cc2)cc1/C=C/C(=O)NO,-,8 µg/mL
CN(C)C(=O)CC(CSc1ccccc1)Nc1c(C(=O)N/N=C/c2ccc(F)cc2)cnc2cc(F)ccc12,MTT,>62.5 µg/mL
CCOc1ccc2c(N/N=C/c3ccc(OC)c4ccccc34)ccnc2c1,-,<4.2 µg/mL
CSc1nsc(-c2cc[n+](C)cc2)c1C#N,-,1000 µM
OC[C@H]1O[C@@H](On2cnc3c(Cl)ncnc32)CS1,-,>100 µg/mL
CCN(CC)c1ccc(/C=N/Nc2cc(C)nc3cc(Cl)ccc23)cc1,-,11.9 µg/mL
O=c1[nH]c(=O)n([C@H]2C[C@H](O)[C@@H](CO)O2)cc1C#Cc1ccc2c3cccc4cccc(c5cccc1c52)c43,MTT,>20 µM
Cc1cc(NN)c2ccc(Cl)cc2n1,-,76.97 µg/mL
Nc1nc2c(ncn2OC2COC(CO)O2)c(=O)[nH]1,-,>100 µg/mL
Cc1cc(NN)c2cc(C3CCCCC3)ccc2n1,-,5.31 µg/mL
CCCCCCCC/C=N/NC(=O)c1cnc2cccc(C(F)(F)F)c2c1NC(CSc1ccccc1)CC(=O)N(C)C,MTT,>62.5 µg/mL
CSc1nsc(-c2ccccc2)c1C#N,-,20 µM
OC[C@@H]1OC[C@H](On2cnc3c(Cl)ncnc32)O1,-,>100 µg/mL
O=c1[nH]cnc2c1ncn2C1C[C@H](CO)[C@@H](CO)C1,-,>200 µg/mL
COc1ccc(/C=N/NC(=O)c2cnc3cccc(C(F)(F)F)c3c2NC(CSc2ccccc2)CC(=O)N(C)C)cc1O,MTT,>62.5 µg/mL
Cn1cc(C(=O)c2ccccc2)cc1/C=C/C(=O)NO,-,15 µg/mL
CCN(CC)c1ccc(/C=N/Nc2ccnc3cc(OC)ccc23)cc1,-,7.2 µg/mL
COc1ccc(/C=N/NC(=O)c2cnc3cc(F)ccc3c2NC(CSc2ccccc2)CC(=O)N(C)C)cc1O,MTT,>62.5 µg/mL
COc1ccc2c(N/N=C/c3c(OC)ccc4ccccc34)cc(C)nc2c1,-,23 µg/mL
Cn1cc(C(=O)c2ccc(F)cc2)cc1/C=C/C(=O)O,-,15 µg/mL
O=c1[nH]c(=O)n([C@@H]2C[C@H](CO)C[C@H]2CO)cc1I,-,>200 µg/mL
NNc1ccnc2ccc(C3CCCCC3)cc12,-,10.28 µg/mL
CCCCNC(=O)Cn1cc(C#Cc2ccc3c4cccc5cccc(c6cccc2c63)c54)c(=O)[nH]c1=O,MTT,6–20 µM
CC(C)Nc1ncnc2c1ncn2C1C[C@H](CO)[C@@H](CO)C1,-,>200 µg/mL
COc1ncnc2c1ncn2O[C@@H]1CO[C@@H](CO)O1,-,>100 µg/mL
CCOc1ccc2c(N/N=C/c3ccc(OC)c4ccccc34)cc(C)nc2c1,-,3.6 µg/mL
CCCCOc1ccc(-c2snc(SC)c2C#N)cc1,-,>50 µM
O=c1[nH]c(=O)n([C@@H]2O[C@H](CO)[C@@H](O)[C@@H]2O)cc1C#Cc1cc2cccc3c4cccc5cccc(c(c1)c23)c54,MTT,>20 µM
Cn1cc(C(=O)c2ccc([N+](=O)[O-])cc2)cc1/C=C/C(=O)NO,-,15 µg/mL
N#Cc1csnc1-c1ccccc1,-,100 µM
Nc1nc(Cl)c2ncn(/C=C3/C[C@H]3CO)c2n1,-,55 µM